PubChem BioAssay AID504761 – Drosophila RNAi Screening Center, 2011

- Purpose: 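Insect host genes that dengue virus relies on to spread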 (primary screen)
- Cells: D.Mel-2 cells from Drosophila
- Reagent: long dsRNA against Drosophila genes
- Conditions: infection with dengue virus type 2; dose and infection time not stated
- Read-out: 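Per well on two replicate plates, imaging gave the percent of cells positive for viral envelope protein, ranked by infection, and a nuclear count of cells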
- Direction: infection score: higher = more virus-infected cells; cell count: higher = more cells in the well
- Hit rule: 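Low infection ranks in the two replicates (chance level up to 0.065) followed by a retest with a 1.5-fold or larger significant decrease, p below 0.05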
- Calls: active = confirmed: knock-down lowers infection; inactive = not picked or not confirmed
The screen tested about 22,000 reagents; shown is a random part of those with a known target gene and a result. In the full data, 116 (0.52%) are marked active. 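Calls depend on retest data that are not deposited; infection was ranked per plate without normalising between plates; the unit of the infection score is not given.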 Raw values vary from plate to plate and are shown uncorrected. A plus sign joins genes that one reagent is predicted to hit. Not stated in the record: the amount of reagent, the time to read-out.

gene	dsRNA	infection score, replicate 1	infection score, replicate 2	cell count, replicate 1	cell count, replicate 2	activity call
CG1494	DRSC20509	11.1	2.45	5127	6495	inactive
CG3430	DRSC02713	19.2	20.6	5440	4115	inactive
CG7381	DRSC16238	15.5	10.8	6787	6311	inactive
CG7381	DRSC29012	13.1	28	6143	5574	inactive
Acox3	DRSC03251	1.43	3.58	6512	6531	inactive
Acox3	DRSC23799	28.4	2.86	6233	6884	inactive
rasp	DRSC08191	0.29	3.04	6639	6062	inactive
Hsp70Aa + Hsp70Ab	DRSC21246	0.23	1.4	6096	5640	inactive
Hsp70Aa + Hsp70Ab	DRSC29327	5.44	7.18	1231	2285	inactive
PMP34	DRSC21939	3.76	0.9	6521	6240	inactive
CG6179	DRSC19973	7.46	7.15	6143	5945	inactive
Mdh2 (retired record)	DRSC16361	5.33	3.61	6563	7058	inactive
sunn	DRSC21659	1.3	3.79	5902	6361	inactive
CG11597	DRSC09847	9.63	11	6013	6318	inactive
CG13919	DRSC08388	3.04	2.13	6025	6099	inactive
CG10232	DRSC14218	4.89	10.8	5846	1512	inactive
CG9676	DRSC20204	9.68	2.99	5959	6619	inactive
CG31546	DRSC12317	3.93	7.16	6431	6953	inactive
CG31546	DRSC25825	5.9	8.21	6132	5977	inactive
Mtp	DRSC03216	33.5	23.8	4745	4891	inactive
rhea	DRSC11300	1.62	2.09	6402	6875	inactive
CG32181	DRSC22635	3.77	3.78	6634	6648	inactive
CG32181	DRSC26268	11.5	10.6	5720	6593	inactive
wus	DRSC20278	1.5	1.14	6462	6140	inactive
Dpm1	DRSC02018	16.2	1.88	4695	6526	inactive
Nup160	DRSC02774	11.4	6.94	1054	865	inactive
oys	DRSC05203	0.4	0.37	6187	5202	inactive
oys	DRSC06751	33.2	16.5	4010	6088	inactive
oys	DRSC26939	1.7	4.05	6469	6045	inactive
CG6656	DRSC16085	4.91	4.42	5766	6874	inactive
CG17196	DRSC15189	3.53	7.01	6353	6619	inactive
Atox1	DRSC22416	1.65	5.61	6050	7025	inactive
bw	DRSC04005	1.98	3.33	5660	5647	inactive
bw	DRSC04677	4.87	6.64	6549	5539	inactive
Ptp61F	DRSC08683	2.37	3.5	5108	5576	inactive
Ptp61F	DRSC28719	4.52	0.21	1084	471	inactive
sna	DRSC03613	1.41	0.89	6901	6661	inactive
Nse1	DRSC02147	5.4	11.1	6004	5763	inactive
CG7135	DRSC20026	7.03	6.52	6172	6840	inactive
CG7135	DRSC29942	37.8	3.93	4424	6521	inactive
CG7408	DRSC10841	3.64	4.47	6290	6084	inactive
CG31612	DRSC03697	1.41	1.91	6191	6792	inactive
CG31612	DRSC03698	2.42	8.28	6699	6739	inactive
unc-13	DRSC17192	0.06	0.45	6456	4900	inactive
unc-13	DRSC17193	0.46	2.18	6122	6332	inactive
unc-13	DRSC17223	9.15	8.38	6370	6671	inactive
cue	DRSC08248	13.6	11.6	5303	1584	inactive
sqz	DRSC16980	7	7.03	6301	6654	inactive
sqz	DRSC28971		23.4	439	6319	inactive
CG31789	DRSC01645	1.94	1.08	5971	6043	inactive
CG31789	DRSC25757	1.44	3.31	6388	6346	inactive
CG13170	DRSC06298	17.7	15.2	2838	3350	inactive
CG13170	DRSC25159	1.84	9.08	6406	6136	inactive
Cpr35B	DRSC01949	3.75	4.59	6099	6542	inactive
Cpr35B	DRSC22797	2.36	4.68	5547	5302	inactive
Cpr35B	DRSC26431	4.07	5.2	5891	6553	inactive
Drsl3	DRSC22630	3.2	5.21	6528	6530	inactive
Drsl3	DRSC29261	29.8	16.1	6131	3569	inactive
CG33253	DRSC19547	10.7	3.58	5860	5787	inactive
CG33253	DRSC20053	2.93	11	5802	6361	inactive
FucTC	DRSC20966	1.52	5.31	6564	5971	inactive
FucTC	DRSC29686	39.5	38.6	3371	5936	inactive
dila	DRSC06607	3.81	7.82	6905	6433	inactive
dila	DRSC26509	0.64	3.94	6514	6453	inactive
CG14000 + bchs	DRSC02333	3.56	3.71	6097	6585	inactive
Fancd2	DRSC15208	6.89	1.58	6181	6844	inactive
Fancd2	DRSC22763	2.07		5164	431	inactive
Fkbp12	DRSC07425	2.64	2.95	6408	5835	inactive
eIF4H1	DRSC20276	30.7	6.39	5312	6074	inactive
dpr7	DRSC17109	3.5	0.92	6575	6720	inactive
dpr7	DRSC26544	4.92	6.09	6345	6596	inactive
axed	DRSC08833	0.47	0.51	6187	6217	inactive
axed	DRSC10982	6.14	4.24	5863	5664	inactive
CG11373	DRSC12170	1.98	1.8	6617	6560	inactive

Copied from the list:
Result for dila [DRSC26509] under “infection score, replicate 1”: 0.64
dpr7 [DRSC17109], infection score, replicate 2 → 0.92
Result for CG3430 [DRSC02713] under “infection score, replicate 2”: 20.6
Under “infection score, replicate 2”, unc-13 [DRSC17223] is entered as 8.38
For “infection score, replicate 2”, PMP34 [DRSC21939] is entered as 0.9
For “activity call”, CG11373 [DRSC12170] is entered as inactive
